Laboratory results from PubChem BioAssay AID651958 (The Scripps Research Institute Molecular Screening Center, 2012).
Only a part is listed here, and it is no random draw. Calls of active or inactive are those of the source. Rule as the data show it: active = inhibition above about 30%; inactive = the rest.

Test system: Crimean-Congo hemorrhagic fever virus L polyprotein viral ovarian tumor (vOTU) protease domain
Test: CCHFV vOTU protease inhibitors, primary screen, biochemical, Pep-AMC substrate, fluorescence (AID 651958); also: 0% = vehicle wells with enzyme and 100% = no enzyme wells
Settings: at 11.5 µM, stronger effect = higher value

| SMILES | inhibition |
| --- | --- |
| O=C(NCC1(N2CCCCC2)CCCCC1)c1cccs1 | inactive: -7.47% |
| CCCCn1nnnc1C(CC)N1CCC(n2c(=O)[nH]c3ccccc32)CC1 (stereo not given) | inactive: 6.28% |
| CCCCn1nnnc1C(c1cccs1)N1CCC(n2c(=O)[nH]c3ccccc32)CC1 (stereo not given) | inactive: 1.76% |
| O=C(NCC1(N2CCCCC2)CCCCC1)c1ccc(=O)[nH]c1 | inactive: 7.5% |
| CC(C)(C)OC(=O)N1CCC(N(C(=O)c2ccccc2)c2ccc(F)cc2)CC1 | inactive: 1.97% |
| COc1ccc(C(=O)NCC2(N3CCCCC3)CCCCC2)c(OC)c1OC | inactive: 2.01% |
| CCC(c1nnnn1C1CCCC1)N1CCC(n2c(=O)[nH]c3ccccc32)CC1 (stereo not given) | inactive: 1.25% |
| COc1ccc(C(=O)NCC2(N3CCCCC3)CCCCC2)cc1 | inactive: 4.14% |
| Cc1cccc(NC2(C#N)CCN(Cc3ccccc3)CC2)c1 | inactive: 25.5% |
| CSc1ccccc1C(=O)NCC1(N2CCCCC2)CCCCC1 | inactive: 5.06% |
| O=C(NCC1(N2CCOCC2)CCCCC1)c1cc2ccccc2o1 | inactive: -2.16% |
| Cc1cc(C)cc(N(C(=O)c2ccccc2)C2CCN(C(=O)OC(C)(C)C)CC2)c1 | inactive: 14.2% |
| O=C(NCC1(N2CCCCC2)CCCCC1)c1ccc(Cl)nc1 | inactive: 13.8% |
| O=c1[nH]c2ccccc2n1C1CCN(C(c2ccccc2OC(F)(F)F)c2nnnn2C2CCCCC2)CC1 (stereo not given) | inactive: -3.98% |
| CCCCn1nnnc1C(c1ccc(OC)cc1)N1CCC(n2c(=O)[nH]c3ccccc32)CC1 (stereo not given) | inactive: 3.12% |
| CCOC(=O)N1CCC(Nc2ccc(OC)cc2)CC1 | inactive: -10.6% |
| COc1ccc(Cl)cc1C(=O)NCC1(N2CCOCC2)CCCCC1 | inactive: -3.96% |
| N#CC1(Nc2ccccc2)CCN(Cc2ccccc2)CC1 | inactive: -18% |
| O=C(NCC1(N2CCCCC2)CCCCC1)c1ccc(Cl)s1 | inactive: 4.09% |
| O=C(OC1CN2CCC1CC2)C1c2ccccc2Oc2ccccc21 (stereo not given) | inactive: 4.19% |
| O=c1[nH]c2ccccc2n1C1CCN(C(c2cc3ccccc3o2)c2nnnn2C2CCCCC2)CC1 (stereo not given) | inactive: 11.3% |
| CCOc1ccc(C)cc1CN(CCCl)CCCl | inactive: -1.99% |

| SMILES | inhibition |
| --- | --- |
| O=C1CCN(Cc2ccccc2)CC1 | inactive: -0.39% |
| CC(C)(C)n1nnnc1C(c1ccccc1)N1CCC(n2c(=O)[nH]c3ccccc32)CC1 (stereo not given) | inactive: -10.6% |
| COc1ccc(NC2CCN(CCc3ccccc3)CC2)c(OC)c1 | inactive: -20.6% |
| CCOC(=O)N1CCC(Nc2ccc(F)cc2)CC1 | inactive: 3.52% |
| O=P1(N(CCCl)CCCl)SCCCS1 | inactive: 0.58% |
| CCCCn1nnnc1C(c1cc2ccccc2o1)N1CCC(n2c(=O)[nH]c3ccccc32)CC1 (stereo not given) | inactive: 2.17% |
| CCCCOc1ccc(C(=O)NCC2(N3CCOCC3)CCCCC2)cc1 | inactive: 7.27% |
| O=C(NCC1(N2CCCCC2)CCCCC1)c1ccc(F)cc1 | inactive: 11.9% |
| O=c1[nH]c2ccccc2n1C1CCN(C(c2ccccc2)c2nnnn2C2CCCCC2)CC1 (stereo not given) | inactive: 11.1% |
| O=c1[nH]c2ccccc2n1C1CCN(C(c2cccc3ccccc23)c2nnnn2C2CCCC2)CC1 (stereo not given) | inactive: 0.83% |
| CCOC(=O)N1CCC(Nc2cccc(C)c2)CC1 | inactive: 14.5% |
| COc1cc(C(=O)NCC2(N(C)C)CCCCC2)ccc1OC(F)F | inactive: 26.5% |
| O=C(NCC1(N2CCCCC2)CCCCC1)c1ccc(OC(F)F)cc1 | inactive: -2.61% |
| CC(C)(C)n1nnnc1C(c1ccccc1OC(F)(F)F)N1CCC(n2c(=O)[nH]c3ccccc32)CC1 (stereo not given) | inactive: 22.2% |
| CSc1ccc(C(=O)NCC2(N3CCOCC3)CCCCC2)cc1 | inactive: 7.69% |
| O=C(NCC1(N2CCCCC2)CCCCC1)c1cccc([N+](=O)[O-])c1 | inactive: -5.6% |
| O=c1[nH]c2ccccc2n1C1CCN(C(c2ccccc2OC(F)(F)F)c2nnnn2C2CCCC2)CC1 (stereo not given) | inactive: 5.33% |
| N#CC1(Nc2ccccc2)CCN(CCc2ccccc2)CC1 | inactive: -1.6% |
| CCN1CCC(Nc2ccc(Cl)cc2)CC1 | inactive: 7.15% |
| O=C(NCC1(N2CCCCC2)CCCCC1)c1cccc(C(F)(F)F)c1 | inactive: -15.9% |
| CN1CCN(CCOC(=O)C(O)(c2ccccc2)c2ccccc2)CC1 | inactive: -0.16% |
| CC(C)c1ccc(C(=O)NCC2(N3CCOCC3)CCCCC2)cc1 | inactive: 15.5% |

| SMILES | inhibition |
| --- | --- |
| COc1ccc(NC2CCN(C(=O)OC(C)(C)C)CC2)cc1 | inactive: 22.1% |
| CCCCn1nnnc1C(c1cccc2ccccc12)N1CCC(n2c(=O)[nH]c3ccccc32)CC1 (stereo not given) | inactive: 13.8% |
| COc1cc(C(=O)NCC2(N3CCCCC3)CCCCC2)ccc1OC(F)F | inactive: 4.95% |
| O=C(NCC1(N2CCOCC2)CCCCC1)c1cc(=O)[nH]c2ccccc12 | inactive: -2.29% |
| CN(C)c1cccc(C(=O)NCC2(N3CCCCC3)CCCCC2)c1 | inactive: -14.4% |
| COc1ccc(CN(CCCl)CCCl)cc1Cl | inactive: -4.32% |
| COC(=O)C1(Nc2ccccc2)CCN(Cc2ccccc2)CC1 | inactive: -6.23% |
| CC(C)c1ccc(NC2CCN(C(=O)OC(C)(C)C)CC2)cc1 | inactive: -2.54% |
| CCCCn1nnnc1C(c1ccnc2ccccc12)N1CCC(n2c(=O)[nH]c3ccccc32)CC1 (stereo not given) | inactive: 7.12% |
| CCC(c1nnnn1C(C)(C)C)N1CCC(n2c(=O)[nH]c3ccccc32)CC1 (stereo not given) | inactive: 1.06% |
| O=C(NCC1(N2CCOCC2)CCCCC1)c1cc(F)c(F)cc1Cl | inactive: -3.35% |
| COc1cc(OC)c(C(=O)NCC2(N(C)C)CCCCC2)cc1OC | inactive: -2.38% |
| CN1CCC(Nc2cccc(F)c2)CC1 | inactive: -8.06% |
| O=C(NCC1(N2CCCCC2)CCCCC1)c1cncc(Br)c1 | inactive: -3.47% |
| CCCOc1ccc(C(=O)NCC2(N(C)C)CCCCC2)cc1OC | inactive: -13.2% |
| Cc1ccc(C(=O)NCC2(N(C)C)CCCCC2)o1 | inactive: 15.9% |
| COc1ccc(C(c2nnnn2C2CCCC2)N2CCC(n3c(=O)[nH]c4ccccc43)CC2)cc1 (stereo not given) | inactive: 5.08% |
| O=C(NCC1(N2CCOCC2)CCCCC1)c1cc(Br)ccc1Cl | inactive: 12.2% |
| COc1cc(C(=O)NCC2(N3CCOCC3)CCCCC2)cc(OC)c1C | inactive: 12.1% |
| CCCCn1nnnc1C(c1ccccc1)N1CCC(n2c(=O)[nH]c3ccccc32)CC1 (stereo not given) | inactive: 12.6% |
| O=c1[nH]c2ccccc2n1C1CCN(C(c2ccnc3ccccc23)c2nnnn2C2CCCC2)CC1 (stereo not given) | inactive: -1.7% |
| COc1ccc(C(=O)NCC2(N3CCOCC3)CCCCC2)cc1OC | inactive: -7.55% |

| SMILES | inhibition |
| --- | --- |
| NC(=O)C1(Nc2ccccc2)CCN(Cc2ccccc2)CC1 | inactive: 2.22% |
| O=c1[nH]c2ccccc2n1C1CCN(C(c2cccs2)c2nnnn2C2CCCCC2)CC1 (stereo not given) | inactive: 20.8% |
| N/C(=N\O)c1c(N)no[n+]1[O-] | inactive: 7.25% |
| CCOC(=O)N1CCC(Nc2ccc(C)cc2)CC1 | inactive: -6.07% |
| COc1cccc(C(c2nnnn2C(C)(C)C)N2CCC(n3c(=O)[nH]c4ccccc43)CC2)c1OC (stereo not given) | inactive: -2.87% |
| CCCCn1nnnc1C(c1cccc(OC)c1OC)N1CCC(n2c(=O)[nH]c3ccccc32)CC1 (stereo not given) | inactive: 6.91% |
| O=c1[nH]c2ccccc2n1C1CCN(C(c2cccs2)c2nnnn2C2CCCC2)CC1 (stereo not given) | inactive: 5.96% |
| O=C(OC1CN2CCC1CC2)C1c2ccccc2C=Cc2ccccc21 (stereo not given) | inactive: -2.33% |
| CC(C)(C)OC(=O)N1CCC(N(C(=O)c2ccccc2)c2ccc(Cl)cc2)CC1 | inactive: 6.8% |
| N#Cc1ccc(C(=O)NCC2(N3CCCCC3)CCCCC2)cc1 | inactive: 2.24% |
| Cc1cc(N(CCCl)CCCl)ccc1C=O | inactive: 24.9% |
| CCCN1CCC(Nc2cc(OC)cc(OC)c2)CC1 | inactive: 3.51% |
| O=c1[nH]c2ccccc2n1C1CCN(C(c2ccccc2)c2nnnn2C2CCCC2)CC1 (stereo not given) | inactive: 1.28% |
| C/C(N)=N\P(=O)(Oc1ccccc1)Oc1ccccc1 | inactive: 1.58% |
| c1ccc(CN2CCC(Nc3ccccc3)CC2)cc1 | inactive: 10.6% |
| CN(C)C1(CNC(=O)c2cccc(C#N)c2)CCCCC1 | inactive: 7.77% |
| CC(C)(C)n1nnnc1C(c1cccc2ccccc12)N1CCC(n2c(=O)[nH]c3ccccc32)CC1 (stereo not given) | inactive: 7.26% |
| COc1cc(OC)cc(C(=O)NCC2(N3CCCCC3)CCCCC2)c1 | inactive: 9.87% |
| O=c1[nH]c2ccccc2n1C1CCN(C(c2ccnc3ccccc23)c2nnnn2C2CCCCC2)CC1 (stereo not given) | inactive: -1.67% |
| CCC(c1nnnn1C1CCCCC1)N1CCC(n2c(=O)[nH]c3ccccc32)CC1 (stereo not given) | inactive: -2.09% |
| COc1cccc(C(c2nnnn2C2CCCCC2)N2CCC(n3c(=O)[nH]c4ccccc43)CC2)c1OC (stereo not given) | inactive: 7.17% |
| CC(=O)N(c1ccccc1)C1CCNCC1 | inactive: -0.92% |

| SMILES | inhibition |
| --- | --- |
| Cc1ccc(NC2(C#N)CCN(Cc3ccccc3)CC2)cc1 | inactive: 10.5% |
| Fc1ccccc1NC1CCN(Cc2ccccc2)CC1 | inactive: 8.44% |
| Cc1ccc(C(=O)NCC2(N3CCCCC3)CCCCC2)o1 | inactive: 5.72% |
| CCN1CCC(Nc2cccc(F)c2)CC1 | inactive: -5.86% |
| COc1ccc(C(c2nnnn2C2CCCCC2)N2CCC(n3c(=O)[nH]c4ccccc43)CC2)cc1 (stereo not given) | inactive: -3.85% |
| CC(C)(C)n1nnnc1C(c1ccnc2ccccc12)N1CCC(n2c(=O)[nH]c3ccccc32)CC1 (stereo not given) | inactive: -1.19% |
| Cc1ccccc1NC1(C#N)CCN(Cc2ccccc2)CC1 | inactive: -7.79% |
| CN(C)c1ccc(C(=O)NCC2(N3CCCCC3)CCCCC2)cc1 | inactive: -14.6% |
| Cn1c(=O)[nH]cc(N(CCCl)CCCl)c1=O | inactive: -9.96% |
| O=C(NCC1(N2CCCCC2)CCCCC1)c1ccco1 | inactive: -11.5% |
| CN1CCC(Nc2ccc(F)c(Cl)c2)CC1 | inactive: 1.1% |
| CCOc1ncccc1C(=O)NCC1(N2CCOCC2)CCCCC1 | inactive: 6.08% |
| O=c1[nH]c2ccccc2n1C1CCN(C(c2cc3ccccc3o2)c2nnnn2C2CCCC2)CC1 (stereo not given) | inactive: 10.7% |
| CCCOc1ccc(C(=O)NCC2(N(C)C)CCCCC2)cc1 | inactive: 8.47% |
| O=C(O)C1(Nc2ccccc2)CCN(Cc2ccccc2)CC1 | inactive: -10.9% |
| NN(c1ccccc1)C1CCN(CCc2ccccc2)CC1 | inactive: 0.02% |
| CC(C)(C)OC(=O)N1CCC(Nc2ccccc2)CC1 | inactive: -2.15% |
| CCC(CO)(C(=O)OC1CN2CCC1CC2)c1ccccc1 (stereo not given) | inactive: -8.55% |
| COc1cccc(C(c2nnnn2C2CCCC2)N2CCC(n3c(=O)[nH]c4ccccc43)CC2)c1OC (stereo not given) | inactive: 9.43% |
| COc1cc(OC)cc(C(=O)NCC2(N3CCOCC3)CCCCC2)c1 | inactive: -0.1% |
| COc1cccc(C(=O)N(c2cc(C)cc(C)c2)C2CCN(C(=O)OC(C)(C)C)CC2)c1 | inactive: -9.13% |
| CN1CCC(Nc2ccc(Cl)cc2)CC1 | inactive: 12.5% |
